PubChem BioAssay AID504761 | Drosophila RNAi Screening Center, 2011
Purpose: 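Fly genes whose silencing reduces dengue virus type 2 infection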 (primary screen). Cells: D.Mel-2 cells from Drosophila. Reagent: long dsRNA against Drosophila genes. Challenge: infection with dengue virus type 2; dose and infection time not stated. Measurement: 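Per well on two replicate plates, imaging gave the percent of cells positive for viral envelope protein, ranked by infection, and a nuclear count of cells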. Direction: infection score: higher = more virus-infected cells; cell count: higher = more cells in the well. Call rule: 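Very low infection ranking in both replicate wells (chance probability at most 0.065), then a retest showing infection dropped 1.5-fold or more at p below 0.05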. Meaning of the calls: active = confirmed: knock-down lowers infection; inactive = not picked or not confirmed.
The deposit covers about 22,000 reagents; shown is an unselected part of those with a known target gene and a result. In the full data, 116 (0.52%) got an active call. 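Calls depend on retest data that are not deposited; infection was ranked per plate without normalising between plates; the unit of the infection score is not given.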 Raw values are not corrected between plates. Unmarked entries are inactive. The numbers tell different reagents against one gene apart. Not given: the amount of reagent, the time to read-out.

gene knocked down | reagent no. | infection score, replicate 1 | infection score, replicate 2 | cell count, replicate 1 | cell count, replicate 2
Qsox3 | 1 | 2.48 | 3 | 6815 | 6793
lva | 1 | 15.9 | 20.3 | 6559 | 6549
lva | 2 | 5.57 | 6.56 | 6530 | 6232
CG8858 | 1 | 9.17 | 6.41 | 6564 | 6380
pr | 1 | 5.21 | 17.4 | 6357 | 5497
CG13004 | 1 | 2.13 | 2.13 | 6237 | 6244
CR18217 | 1 | 0.77 | 11.6 | 5462 | 5239
CG13955 | 1 | 6.33 | 12.5 | 6687 | 6005
esg | 1 | 2.23 | 3.14 | 6560 | 6468
CG34447 | 1 | 3.59 | 8.79 | 6160 | 6306
Dis3l2 | 1 | 13.6 | 7.32 | 6201 | 6015
Syp | 1 | 2.28 | 1.93 | 6187 | 6326
Syp | 2 | 10.1 | 11.2 | 6541 | 6989
Syp | 3 | – | 5.03 | 390 | 457
Ugt305A1 | 1 | 11.4 | 5.43 | 5722 | 5687
Ugt305A1 | 2 | 1.78 | 2.36 | 4765 | 6182
CG2938 | 1 | 39.5 | 13.8 | 5213 | 5782
CG2938 | 2 | 34.9 | 15.9 | 5202 | 5222
edin | 1 | 3.21 | 2.9 | 5852 | 5661
CG15747 | 1 | 23.1 | 15.5 | 4995 | 5056
CG15747 | 2 | 15.6 | 9.5 | 1922 | 1864
CG14712 | 1 | 17.3 | 24.2 | 1533 | 2038
Gyc89Da | 1 | 4.44 | 8.45 | 6469 | 5517

As entered above:
Result of CR18217 in “cell count, replicate 1”: 5462
Value for lva #2 in “cell count, replicate 1”: 6530
